Source: patent US20170226161A1
pKd: −log10 of the molar value.

Sequences of proteins named here, by UniProt entry; tags and fusion partners are left off. Residues count along the entry.
UniProt P08603, 321-443 limits assumed: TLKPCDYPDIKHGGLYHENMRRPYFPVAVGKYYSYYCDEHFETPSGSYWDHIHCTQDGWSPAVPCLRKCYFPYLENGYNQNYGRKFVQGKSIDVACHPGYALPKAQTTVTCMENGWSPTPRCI
UniProt P08603, 19-1231: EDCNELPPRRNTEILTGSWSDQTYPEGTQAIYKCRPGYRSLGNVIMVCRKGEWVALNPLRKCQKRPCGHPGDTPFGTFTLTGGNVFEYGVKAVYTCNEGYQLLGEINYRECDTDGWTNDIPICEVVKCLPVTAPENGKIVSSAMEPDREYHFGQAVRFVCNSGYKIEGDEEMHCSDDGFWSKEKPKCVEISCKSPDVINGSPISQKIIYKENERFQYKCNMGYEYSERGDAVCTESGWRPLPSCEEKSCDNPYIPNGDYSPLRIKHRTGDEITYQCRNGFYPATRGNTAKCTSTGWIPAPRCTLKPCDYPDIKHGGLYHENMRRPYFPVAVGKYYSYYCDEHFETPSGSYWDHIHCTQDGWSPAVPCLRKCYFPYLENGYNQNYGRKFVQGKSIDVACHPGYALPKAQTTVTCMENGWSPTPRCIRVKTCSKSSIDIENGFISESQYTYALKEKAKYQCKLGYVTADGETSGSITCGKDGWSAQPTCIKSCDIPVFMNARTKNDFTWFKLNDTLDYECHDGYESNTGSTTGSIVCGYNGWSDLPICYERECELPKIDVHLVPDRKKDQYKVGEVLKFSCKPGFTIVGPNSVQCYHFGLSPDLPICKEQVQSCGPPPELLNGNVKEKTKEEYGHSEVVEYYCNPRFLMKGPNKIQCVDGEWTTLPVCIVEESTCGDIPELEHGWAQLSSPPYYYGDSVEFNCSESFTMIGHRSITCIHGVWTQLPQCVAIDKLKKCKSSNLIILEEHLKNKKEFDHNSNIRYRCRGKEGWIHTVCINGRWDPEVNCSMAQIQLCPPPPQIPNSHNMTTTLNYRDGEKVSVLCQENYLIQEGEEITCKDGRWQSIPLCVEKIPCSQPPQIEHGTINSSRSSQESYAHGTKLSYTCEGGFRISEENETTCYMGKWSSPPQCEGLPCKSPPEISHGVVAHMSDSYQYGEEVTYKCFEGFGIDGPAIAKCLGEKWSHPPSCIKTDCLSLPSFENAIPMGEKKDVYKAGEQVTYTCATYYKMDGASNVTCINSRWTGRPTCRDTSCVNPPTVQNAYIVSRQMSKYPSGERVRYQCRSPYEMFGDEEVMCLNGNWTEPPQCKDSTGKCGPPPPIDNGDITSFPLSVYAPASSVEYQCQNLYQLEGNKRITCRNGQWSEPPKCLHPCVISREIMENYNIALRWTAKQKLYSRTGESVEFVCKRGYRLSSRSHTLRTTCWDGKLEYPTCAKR

Tests used:
[1] = biological target: factor H comprising only domains 6-7 (UniProt P08603)
[2] = biological target: factor H full length (Calbiochem) (UniProt P08603)

Row | Substance | Ration KD wt/x (residual binding) [1] | pKd [2] | Ration KD wt/x (residual binding) [2] | koff [2] [s⁻¹] | kon [2] [M⁻¹ s⁻¹]
1 | 'wild-type' v2-v3-v1 fHbp fusion polypeptide | 1 |  |  |  | 
2 | 'wild-type' v2-v3-v1 fHbp fusion polypeptide (other; other documents disagree on this pair) |  | 6.51 | 1 | 0.003 | 11000
